Reference: PubChem BioAssay AID1259414 (Drosophila RNAi Screening Center, 2018)
Assay: 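Host factors increasing or decreasing Wolbachia levels in cultured fly cells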 (primary screen). System: Drosophila JW18 cells infected with Wolbachia. Reagent: long dsRNA against Drosophila genes, 0.25 µg dsRNA per well of a 384-well plate. Timing: 5 days. Treatment: cells persistently infected with Wolbachia before knock-down; no added drug. Read-out: 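Imaged fluorescence in situ signal for Wolbachia 23S rRNA per DAPI-counted host cell, given as a robust z-score within each plate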. Scale: Wolbachia per cell robust z: higher = more Wolbachia per host cell than the plate typical. Hit rule: 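Hit when robust z is 1.5 or more, or -1.5 or less, in at least two of three replicates; excludes dsRNAs with several or no targets, genes not expressed in JW18 and well A1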.
The screen tested about 24,000 reagents; this is a random part of those with a known target gene and a result. Over the whole deposit, about 1,210 (5%) were called active. 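Inactive calls also include excluded dsRNAs with several or no targets, genes unexpressed in JW18, and well A1, regardless of score.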 A number with no mark means an inactive call. Names joined by + are all predicted targets of the reagent.

| target | dsRNA | Wolbachia per cell robust z, rep 1 | Wolbachia per cell robust z, rep 2 | Wolbachia per cell robust z, rep 3 |
| --- | --- | --- | --- | --- |
| garz | DRSC07193 | -0.569 | 1.04 | -0.0883 |
| Sdic4 + sw + Sdic1 + 2 more | DRSC20696 | 0.207 | 0.499 | 0.642 |
| Sdic4 + sw + Sdic1 + 2 more | DRSC29154 | -0.963 | 0.575 | 0.504 |
| CG33169 | DRSC11853 | -0.437 | -0.498 | 0.0272 |
| CG33169 | DRSC27830 | -5.33 | 0.249 | 0.121 |
| CG1910 | DRSC15400 | 0.0427 | -1.03 | -0.361 |
| CG1910 | DRSC39143 | -0.481 | 0.47 | -0.462 |
| Nop17l | DRSC06556 | -0.35 | 1.14 | 0.579 |
| Nop17l | DRSC29430 | -1.13 | -1.12 | -0.558 |
| mura | DRSC23145 | 1.32 | 1.38 | 1.43 |
| mura | DRSC26645 | -4.19 (active) | -2.66 | -0.627 |
| CG3457 | DRSC18509 | -0.739 | -0.0791 | -2.63 |
| CG3457 | DRSC26458 | -0.72 | -0.0803 | 0.456 |
| Polr1A | DRSC07535 | -6 | -0.644 | 1.15 |
| CG6142 | DRSC15976 | -2.87 | 0.981 | 0.7 |
| CG15449 | DRSC20521 | 0.425 | 0.661 | 0.912 |
| CG14636 | DRSC12223 | -1.71 | 0.233 | -0.331 |
| CG14636 | DRSC28578 | 1.85 | -1.23 | -2.19 |
| ste24c + CG30461 | DRSC05639 | -3.21 | -1.03 | 0.313 |
| ste24c + CG30461 | DRSC07316 | 0.0316 | -5.53 | -0.0943 |
| CG33099 | DRSC15774 | 0.729 | 2.96 | 0.615 |
| CG33099 | DRSC29273 | -0.488 | -0.349 | 0.698 |
| Ir94h | DRSC15232 | 0.224 | 0.474 | 0.29 |
| QC | DRSC09736 | 0.205 | -0.503 | 1.15 |
| Vamp7 | DRSC06599 | 0.0556 | -0.274 | -0.0898 |
| CR7448 | DRSC11828 | -2.11 | -6.3 | 0.759 |
| CR7448 | DRSC22485 | -1.98 | -2.47 | -2.03 |
| Sox15 | DRSC07555 | 1.14 | 0.573 | 0.823 |
| Sox15 | DRSC28528 | -0.625 | -0.425 | -0.422 |
| peo | DRSC05995 | -1.31 | -0.239 | 0.233 |

7 neighbouring reagents already listed, for reference:
| target | dsRNA | Wolbachia per cell robust z, rep 1 | Wolbachia per cell robust z, rep 2 | Wolbachia per cell robust z, rep 3 |
| --- | --- | --- | --- | --- |
| CG14636 | DRSC28578 | 1.85 | -1.23 | -2.19 |
| ste24c + CG30461 | DRSC05639 | -3.21 | -1.03 | 0.313 |
| ste24c + CG30461 | DRSC07316 | 0.0316 | -5.53 | -0.0943 |
| CG33099 | DRSC15774 | 0.729 | 2.96 | 0.615 |
| CG33099 | DRSC29273 | -0.488 | -0.349 | 0.698 |
| Ir94h | DRSC15232 | 0.224 | 0.474 | 0.29 |
| QC | DRSC09736 | 0.205 | -0.503 | 1.15 |

More records follow:
| target | dsRNA | Wolbachia per cell robust z, rep 1 | Wolbachia per cell robust z, rep 2 | Wolbachia per cell robust z, rep 3 |
| --- | --- | --- | --- | --- |
| CG11159 | DRSC06050 | 0.931 | 1.06 | 0.684 |
| p120ctn | DRSC07753 | 0.338 | -0.538 | -0.374 |
| RpS14a | DRSC18710 | 2.11 | 2.47 | 2.98 |
| CG33557 | DRSC17854 | 0.558 | 0.607 | 0.873 |
| CG8916 | DRSC20120 | -1.06 | -2.32 | -0.523 |
| CG15614 | DRSC06567 | 0.266 | -0.663 | -1.83 |
| Hex-t1 | DRSC16701 | -1.96 | 0.586 | -1.14 |
| Hex-t1 | DRSC26127 | -1.81 | -0.243 | -1.35 |
| ND-24 | DRSC19960 | -1.17 | 0.0213 | 0.015 |
| ago | DRSC08463 | 0.135 | 0.444 | 1.16 |
| CG15482 | DRSC02492 | 0.564 | 0.751 | -0.306 |
| RSG7 | DRSC20274 | -3.96 | 0.259 | 0.625 |
| RSG7 | DRSC22852 | 0.396 | -3.36 | 0.22 |
| CG34199 | DRSC05867 | -0.0584 | 1.03 | 0.507 |
| CG34199 | DRSC28143 | -1.17 | 0.268 | 0.0382 |
| CapaR | DRSC23640 | 0.0523 | 0.771 | 1.73 |
